Reference: US20060051744
Where cells or extracts were used, other partners may take part.

Tested on: alpha-enolase (ENO1, 48 kDa band in CrFK lysate and feline tissues) (Felis catus)
Assay: binding assay
Details: northwestern (1D and 2D); 50 mM NaCl, 10 mM Tris pH 7, 1 mM EDTA, with yeast tRNA and salmon sperm DNA as blockers; described as high affinity; protein in an extract; label: 32P-CTP internal

Question: Does “CAUCGCGCUGUCUACUCUUGUACAGAAUGGUAAGCACGUGUAAUAGGAGGUACAAGCAACCCUAUUGCAUAUUAGGAAGUUUAGAUUUGAUUUGGCAAUGCUAGAUUUAGUAAUUUAGAGAA [FIPV 3'UTR riboprobe (positive strand, T7 transcript)]” bind?
Answer: binds
